Results reported in patent US20120231024A1.

Molecular target: prostate specific membrane antigen (PSMA), native, on the cell surface (human) (UniProt Q04609)
Experiment: cell-based or functional assay

Substance	cytotoxic effect on LNCaP cells (WST assay), IC50 [nM]
recombinant immunotoxin A5-PE40 (from UniProt P11439 278-638)	0.09
recombinant immunotoxin E8-PE40 (from UniProt P11439 278-638)	0.05
